PubChem BioAssay AID1259414 – Drosophila RNAi Screening Center, 2018

Screen: 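Genome-wide screen for host control of endosymbiont load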 (primary screen)
System: Drosophila JW18 cells infected with Wolbachia
Reagent: long dsRNA against Drosophila genes, 0.25 µg dsRNA per well of a 384-well plate
Time to read-out: 5 days
Conditions: cells persistently infected with Wolbachia before knock-down; no added drug
Read-out: 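Imaged fluorescence in situ signal for Wolbachia 23S rRNA per DAPI-counted host cell, given as a robust z-score within each plate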
Direction: Wolbachia per cell robust z: higher = more Wolbachia per host cell than the plate typical
Hit rule: 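Hit when robust z is 1.5 or more, or -1.5 or less, in at least two of three replicates; excludes dsRNAs with several or no targets, genes not expressed in JW18 and well A1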
The screen tested about 24,000 reagents; shown is a random part of those that have a named target and a result. In the full data, about 1,210 (5%) are marked active. 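Inactive calls also include excluded dsRNAs with several or no targets, genes unexpressed in JW18, and well A1, regardless of score.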 The numbers tell different reagents against one gene apart. No sequences are given here.

sni #1
- Wolbachia per cell robust z, rep 1: 0.564
- Wolbachia per cell robust z, rep 2: 0.0083
- Wolbachia per cell robust z, rep 3: 0.677
- Outcome: inactive

sni #2
- Wolbachia per cell robust z, rep 1: 0.621
- Wolbachia per cell robust z, rep 2: 0.627
- Wolbachia per cell robust z, rep 3: 0.0391
- Outcome: inactive

sni #3
- Wolbachia per cell robust z, rep 1: 0.461
- Wolbachia per cell robust z, rep 2: -1.25
- Wolbachia per cell robust z, rep 3: -1.12
- Outcome: inactive

CG2698
- Wolbachia per cell robust z, rep 1: 0.304
- Wolbachia per cell robust z, rep 2: -7.06
- Wolbachia per cell robust z, rep 3: 0.398
- Outcome: inactive

CG33627
- Wolbachia per cell robust z, rep 1: -0.242
- Wolbachia per cell robust z, rep 2: -1.1
- Wolbachia per cell robust z, rep 3: -0.749
- Outcome: inactive

BoYb #1
- Wolbachia per cell robust z, rep 1: -2.67
- Wolbachia per cell robust z, rep 2: -1.23
- Wolbachia per cell robust z, rep 3: 1.07
- Outcome: inactive

BoYb #2
- Wolbachia per cell robust z, rep 1: 0.634
- Wolbachia per cell robust z, rep 2: 0.981
- Wolbachia per cell robust z, rep 3: 1.06
- Outcome: inactive

drd #1
- Wolbachia per cell robust z, rep 1: 0.663
- Wolbachia per cell robust z, rep 2: 1.34
- Wolbachia per cell robust z, rep 3: 0.308
- Outcome: inactive

drd #2
- Wolbachia per cell robust z, rep 1: 0.718
- Wolbachia per cell robust z, rep 2: 0.833
- Wolbachia per cell robust z, rep 3: 0.794
- Outcome: inactive

drd #3
- Wolbachia per cell robust z, rep 1: -0.76
- Wolbachia per cell robust z, rep 2: -0.57
- Wolbachia per cell robust z, rep 3: -0.0301
- Outcome: inactive

Reprinted from above, 2 entries:
sni #1
- Wolbachia per cell robust z, rep 1: 0.564
- Wolbachia per cell robust z, rep 2: 0.0083
- Wolbachia per cell robust z, rep 3: 0.677
- Outcome: inactive

sni #2
- Wolbachia per cell robust z, rep 1: 0.621
- Wolbachia per cell robust z, rep 2: 0.627
- Wolbachia per cell robust z, rep 3: 0.0391
- Outcome: inactive

Additional records follow.
CG12128 #1
- Wolbachia per cell robust z, rep 1: -0.658
- Wolbachia per cell robust z, rep 2: -0.709
- Wolbachia per cell robust z, rep 3: -0.433
- Outcome: inactive

CG12128 #2
- Wolbachia per cell robust z, rep 1: -0.448
- Wolbachia per cell robust z, rep 2: -1.27
- Wolbachia per cell robust z, rep 3: -5.78
- Outcome: inactive

CG31140 #1
- Wolbachia per cell robust z, rep 1: 0.454
- Wolbachia per cell robust z, rep 2: -0.0174
- Wolbachia per cell robust z, rep 3: 1.94
- Outcome: inactive

CG31140 #2
- Wolbachia per cell robust z, rep 1: -0.906
- Wolbachia per cell robust z, rep 2: -0.906
- Wolbachia per cell robust z, rep 3: -0.135
- Outcome: inactive

CG13723
- Wolbachia per cell robust z, rep 1: -0.413
- Wolbachia per cell robust z, rep 2: -0.368
- Wolbachia per cell robust z, rep 3: 0.992
- Outcome: inactive

CG34031
- Wolbachia per cell robust z, rep 1: 0.525
- Wolbachia per cell robust z, rep 2: -1.14
- Wolbachia per cell robust z, rep 3: -0.132
- Outcome: inactive
